Reference: patent US20190150137A1

Target: GST-Fg g^1-17D16A (GST fusion of the Fg γ 395-411 sequence with D16A) (human)
Experiment: solid-phase assay, immobilised GST fusion, anti-His detection

B1: ClfA229-545 (recombinant His-tagged N2N3 segment of Staphylococcus aureus clumping factor A) (protein)
chain: GTDITNQLTNVTVGIDSGTTVYPHQAGYVKLNYGFSVPNSAVKGDTFKITVPKELNLNGVTSTAKVPPIMAGDQVLANGVIDSDGNVIYTFTDYVNTKDDVKATLTMPAYIDPENVKKTGNVTLATGIGSTTANKTVLVDYEKYGKFYNLSIKGTIDQIDKTNNTYRQTIYVNPSGDNVIAPVLTGNLKPNTDSNALIDQQNTSIKVYKVDNAADLSESYFVNPENFEDVTNSVNITFPNPNQYKVEFNTPDDQITTPYIVVVNGHIDPNSKGDLALRSTLYGYNSNIIWRSMSWDNEVAFNNGSGSGDGIDKPVVP
Work on B1 yielded a Kd of 35 nM.
